This note sets out measurements from publication PMC6328932, “Procaspase activating compound 1 controls tetracycline repressor-regulated gene expression system” (Bioscience Reports, 2019).

The chains behind the UniProt entries cited, without tags or fusion partners. Where a name states a change or a piece, a line headed by the entry shows the natural chain unless it says otherwise.
UniProt P04483: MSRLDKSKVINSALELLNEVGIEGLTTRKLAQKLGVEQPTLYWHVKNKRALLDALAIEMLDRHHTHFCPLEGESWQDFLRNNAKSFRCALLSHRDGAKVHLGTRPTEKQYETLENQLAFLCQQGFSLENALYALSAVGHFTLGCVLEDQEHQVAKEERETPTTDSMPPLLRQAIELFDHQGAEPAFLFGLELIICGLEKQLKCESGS

The target in this series is TetR(B) (UniProt P04483). Briefly: EMSA. To be noted: EMSA: 20 mM Tris-HCl pH 8.0, 50 mM NaCl, 1 mM MgCl2, 0.1 mM DTT, 15 min at room temperature, 8% PAGE in 90 mM Tris, 90 mM boric acid, 5 mM MgCl2, recombinant protein, label: none (ethidium bromide stain). Background: A gel shift assay detects complexes by their altered migration in electrophoresis.

Construct, isoform or probe ends are uncertain for at least one entry. Negatives hold for the conditions tested.

Take “CCTAATTTTTGTTGACACTCTATCATTGATAGAGTTATTTTACCACTC (double strand) [tetO]”: the binding result runs as follows: (20 uM Dox + PAC-1 up to 2 mM, tetO stays free) “no binding”; (20 uM Dox, 4 uM TetR, 0.5 uM tetO, complex completely disappears) “no binding”.
